Molecular target: TepC (purified protein) (Yersinia pseudotuberculosis)
Assay: ITC; TepC with TipC; conditions in the Supplementary Methods

TipC (natural protein)
Kd: 12 nM
